A mixed list of measured activities; the numbers were collected in NIAID ChemDB.

All rows: tests in culture; organism: HIV-1; read by: RT activity; endpoint: EC50

Lines come from different laboratories, so protocols vary.

SMILES	cell line	strain	setting	result
CN1CCN(CCSc2nnc(-c3ccc4ccccc4c3)c3ccccc23)CC1	PBMC	LAV-1	-	12.2 µM
CC[C@H](C)[C@H](NC(=O)C(C)N(C(=O)[C@H](Cc1ccccc1)NC(=O)[C@H](C)NC(=O)OC(C)(C)C)C(Cl)CCl)C(=O)N[C@H](C(=O)OC)C(C)C	CEM	LAI	-	100 µg/mL
O=C(C(=O)N1CCN(C(=O)c2ccccc2)CC1)c1c[nH]c2ccc(Cl)cc12	MT-2	BRU	-	<10 µM
COc1ccc(-c2c3nc(c(-c4ccc(OC)cc4)c4ccc([nH]4)c(-c4ccc(OC)cc4)c4nc(c(-c5ccc(OC)cc5)c5ccc2[nH]5)C=C4)C=C3)cc1	PBMC	LAV	-	8 µM
O=C(NCCc1ccccc1)Nc1nc2ccc(Cl)cc2s1	MT-4	-	-	<1 µg/mL
CC1=N/C(=C/c2ccc3c(c2)CC=N3)C(=O)N1c1nc(C)cc(=O)[nH]1	-	-	-	67.94 µg/mL
Cc1cc(C(=O)N[C@@]23CC[C@]4(C)[C@H](CC[C@@H]5[C@@]6(C)CC[C@H](OC(=O)CC(C)(C)C(=O)O)C(C)(C)[C@@H]6CC[C@]54C)C2=C(C(C)C)C(=O)C3)ccn1	MT-2	IIIB	30% human serum	<0.199 µM
COc1cc(/C=C2/N=C(c3ccccc3)N(c3nc(C)cc(=O)[nH]3)C2=O)cc(OC)c1OC	-	-	-	57 µg/mL
Nc1ccn([C@H]2S[C@@H](CO)C=C2F)c(=O)n1	PBMC	LAV	-	0.12 µM
COCCNC(=O)[C@@H](NC(=O)[C@H](Cc1cc(OC)c(OC)c(OC)c1)C[C@H](O)[C@H](Cc1ccccc1)NC(=O)OC(C)(C)C)C(C)C	MT-2	MN	-	<0.3 µM
CC(C)C1=C2C3CCC4[C@@]5(C)CC[C@H](OC(=O)CC(C)(C)C(=O)O)C(C)(C)C5CC[C@@]4(C)[C@]3(C)CC[C@@]2(NC(=O)N[C@@H](C)c2ccccc2)CC1=O	MT-2	IIIB	30% human serum	<0.199 µM
CCCCCCCCCCCCCCO	H9	IIIB	-	10 µg/mL
CC(=O)Oc1ccccc1C(=O)N1CCN(C(=O)C(=O)c2c[nH]c3ccccc23)CC1	MT-2	BRU	-	<10 µM
CCOCCNC(=O)[C@@H](NC(=O)[C@H](Cc1ccc(OC)c(OC)c1OC)C[C@H](O)[C@H](Cc1ccccc1)NC(=O)OC(C)(C)C)C(C)C	MT-2	MN	-	<0.03 µM
Nc1ccn([C@H]2O[C@@H](CO)C=C2F)c(=O)n1	PBMC	LAV	-	0.51 µM
COc1ccccc1C[C@H](C[C@H](O)[C@H](Cc1ccccc1)NC(=O)OC(C)(C)C)C(=O)N[C@H](C(=O)NCCN(C)C)C(C)C	MT-2	MN	-	<3 µM
Nc1nc2c(ncn2[C@@H]2OC[C@H](/C=C/P(=O)(O)O)C23CC3)c(=O)[nH]1	PBMC	LAV-1	-	66 µM
CN1CCN(c2nc(-c3cccs3)cc(-c3cc4ccccc4s3)n2)CC1	PBMC	LAV-1	-	8 µM
CC(C)C1=C2C3CCC4[C@@]5(C)CC[C@H](OC(=O)CC(C)(C)C(=O)O)C(C)(C)C5CC[C@@]4(C)[C@]3(C)CC[C@@]2(NC(=O)OCC2(C)CC2)CC1=O	MT-2	IIIB	30% human serum	<0.199 µM
CC1=N/C(=C/c2ccc(Cl)cc2)C(=O)N1c1nc(C)cc(Cl)n1	-	-	-	72.84 µg/mL
Cc1nc(NC(=O)NCCc2ccccc2)sc1C	MT-4	-	-	<10 µg/mL
Nc1ncnc2c1ncn2COCCOP(=O)(O)O	SupT1 + Sup-T1	-	-	>300 µM
NCCCC(NC(=O)CCCCCCCCN=C(N)N)C(O)CCCCCCCCN=C(N)N	H9	IIIB	-	~25 µg/mL
O=C(C(=O)N1CCN(C(=O)c2ccccc2)CC1)c1c[nH]c2ccc(Br)cc12	MT-2	BRU	-	<10 µM
Nc1nc(=O)n([C@@H]2O[C@H](CO)C=C2F)cc1F	PBMC	xxBRU	-	<9.9 µM
COCCNC(=O)[C@@H](NC(=O)[C@H](Cc1ccc(OC)cc1OC)C[C@H](O)[C@H](Cc1ccccc1)NC(=O)OC(C)(C)C)C(C)C	MT-2	MN	-	<0.1 µM
C/C(=N\NC(=O)CN1c2c(-c3ccccc3)n[nH]c2-c2ccccc2S1(=O)=O)c1cc(Cl)sc1Cl	PBMC	-	-	3.2 µM
CC(=O)O[C@@H]1[C@@H](OC(C)=O)[C@H](C)O[C@@H]2Oc3[nH]c(=O)[nH]c(=O)c3S[C@@H]21	PBMC	LAI	-	41.4 µM
Nc1nc2c(ncn2[C@@H]2OC[C@H](CCP(=O)(O)O)C23CC3)c(=O)[nH]1	PBMC	LAV-1	-	80 µM
CCc1c(OC)nc(OC)c(C#N)c1Cc1cc(C)cc(C)c1	CEM + CEM-SS	LAI	-	>100 µM
CC1=CC[C@]2(C)CC[C@]3(C)C(=O)C=C(C(C)C)[C@@H]3[C@H]2CC1	PBMC	LAV	-	>100 µM
CN1CCN(c2nc(-c3ccccc3)cc(-c3cccs3)n2)CC1	PBMC	LAV-1	-	63 µM
Cn1c2c(c(=O)n(C)c1=O)S[C@H]1[C@@H](O2)O[C@H](COc2ccccc2)[C@@H](OCc2ccccc2)[C@@H]1OCc1ccccc1	PBMC	LAI	-	>100 µM
C=CCN(C(=O)[C@H](Cc1ccccc1)NC(=O)[C@H](C)NC(=O)OC(C)(C)C)C(C)C(=O)N[C@H](C(=O)N[C@H](C(=O)OC)C(C)C)[C@@H](C)CC	CEM	LAI	-	60 µg/mL
Nc1ncnc2c1ncn2[C@@H]1O[C@H](COP(=O)(O)O[C@@H]2[C@H](O)[C@@H](COP(=O)(O)O[C@@H]3[C@H](O)[C@@H](CO)O[C@H]3n3cnc4c(N)ncnc43)O[C@H]2n2cnc3c(N)ncnc32)[C@@H](O)[C@H]1O	SupT1 + Sup-T1	-	-	>300 µM
Cc1nnc(C(=O)N[C@@]23CC[C@]4(C)[C@H](CC[C@@H]5[C@@]6(C)CC[C@H](OC(=O)CC(C)(C)C(=O)O)C(C)(C)[C@@H]6CC[C@]54C)C2=C(C(C)C)C(=O)C3)o1	MT-2	IIIB	30% human serum	<0.199 µM
COCCCNC(=O)[C@@H](NC(=O)[C@H](Cc1ccc(OC)c(OC)c1OC)C[C@H](O)[C@H](Cc1ccccc1)NC(=O)OC(C)(C)C)C(C)C	MT-2	MN	-	<0.03 µM
CC(=O)OC[C@H]1O[C@@H](SCCOP(=O)(O)OC[C@H]2O[C@@H](n3cc(C)c(=O)[nH]c3=O)C[C@@H]2N=[N+]=[N-])[C@H](OC(C)=O)[C@@H](OC(C)=O)[C@@H]1OC(C)=O	MM + M/M	LAI	-	0.2 µM
O=C(NCCc1ccccc1)Nc1nc2ccccc2s1	MT-4	-	-	<1 µg/mL
Cc1cc(=O)[nH]c(N2C(=O)/C(=C\c3ccccc3)N=C2c2ccccc2)n1	-	-	-	47.75 µg/mL
Cc1cc(C)cc(Cc2c3c([nH]c(=O)c2C#N)OCC3)c1	CEM + CEM-SS	LAI	-	>100 µM
CCOC(=O)P(=O)(O)OC[C@H]1O[C@@H](n2cc(C)c(=O)[nH]c2=O)C[C@@H]1N=[N+]=[N-]	CD4/T + CD4	-	-	0.1–1 µM
CC(C)[C@H](NC(=O)[C@H](Cc1ccc(O)cc1)C[C@H](O)[C@H](Cc1ccccc1)NC(=O)OC(C)(C)C)C(=O)N[C@@H](Cc1ccccc1)C(=O)N1CCOCC1	MT-2	MN	-	<0.3 µM
Nc1ncnc2c1ncn2COCCOP(=O)([O-])O[C@@H]1[C@H](O)[C@@H](COP(=O)([O-])O[C@@H]2[C@H](O)[C@@H](CO)O[C@H]2n2cnc3c(N)ncnc32)O[C@H]1n1cnc2c(N)ncnc21	SupT1 + Sup-T1	-	-	<300 µM
CC(=O)O[C@@H]1[C@@H](OC(C)=O)[C@H](C)O[C@@H]2Oc3c(c(=O)n(C)c(=O)n3C)S[C@@H]21	PBMC	LAI	-	29 µM
Nc1ccn([C@@H]2O[C@@H](CO)[C@H](O)C2(F)F)c(=O)n1	PBMC	LAI	-	>100 µM
Oc1ccc(-c2c3nc(c(-c4ccc(O)c(O)c4)c4ccc([nH]4)c(-c4ccc(O)c(O)c4)c4nc(c(-c5ccc(O)c(O)c5)c5ccc2[nH]5)C=C4)C=C3)cc1O	PBMC	LAV	-	12 µM
Cc1cn([C@H]2C[C@H](N=[N+]=[N-])[C@@H](COP(=O)(OCCSC(=O)C(C)(C)C)OCCSC(=O)C(C)(C)C)O2)c(=O)[nH]c1=O	CEM + CEM-SS	LAI	-	0.015 µM
CN(C)CCSc1nc(-c2cccs2)cc(-c2cccn2C)n1	PBMC	LAV-1	-	15.9 µM
Cc1cn([C@H]2C[C@H](N=[N+]=[N-])[C@@H](COP(=O)(O)OCCS[C@@H]3O[C@H](CO)[C@@H](O)[C@H](O)[C@H]3O)O2)c(=O)[nH]c1=O	CEM + CEM-SS	LAI	-	0.004 µM
Cc1cc(Cl)nc(N2C(=O)/C(=C\c3ccc(Cl)cc3)N=C2c2ccccc2)n1	-	-	-	52.09 µg/mL
Cc1cccc(Cc2c3c([nH]c(=O)c2C#N)OCC3)c1	CEM + CEM-SS	LAI	-	>100 µM
Cc1nc(C(=O)N[C@@]23CC[C@]4(C)C(CCC5[C@@]6(C)CC[C@H](OC(=O)CC(C)(C)C(=O)O)C(C)(C)C6CC[C@]54C)C2=C(C(C)C)C(=O)C3)co1	MT-2	IIIB	30% human serum	<0.199 µM
O=C1[C@@H](Cc2ccccc2)NC(=S)N1Cc1ccccc1	MT-4	-	-	<100 µg/mL
Oc1ccc(-c2c3nc(c(-c4ccc(O)cc4O)c4ccc([nH]4)c(-c4ccc(O)cc4O)c4nc(c(-c5ccc(O)cc5O)c5ccc2[nH]5)C=C4)C=C3)c(O)c1	PBMC	LAV	-	7.3 µM
COCCNC(=O)[C@@H](NC(=O)[C@H](Cc1cccc(OC)c1)C[C@H](O)[C@H](Cc1ccccc1)NC(=O)OC(C)(C)C)C(C)C	MT-2	MN	-	<0.03 µM
CC(C)C1=C2[C@H]3CC[C@@H]4[C@@]5(C)CC[C@H](OC(=O)CC(C)(C)C(=O)O)C(C)(C)[C@@H]5CC[C@@]4(C)[C@]3(C)CC[C@@]2(NC(=O)C2CCNCC2)CC1=O	MT-2	IIIB	30% human serum	>1 µM
O=C(C(=O)N1CCN(C(=O)c2ccc(F)c(Cl)c2)CC1)c1c[nH]c2ccccc12	MT-2	BRU	-	~10 µM
CC(C)C1=C2[C@H]3CC[C@@H]4[C@@]5(C)CC[C@H](OC(=O)CC(C)(C)C(=O)O)C(C)(C)[C@@H]5CC[C@@]4(C)[C@]3(C)CC[C@@]2(N)CC1=O	MT-2	IIIB	-	<0.199 µM
CN1CCN(CCSc2nc(-c3ccccc3)c3ccccc3n2)CC1	PBMC	LAV-1	-	22.4 µM
Cc1cn([C@H]2C=C[C@](CO)(N=[N+]=[N-])O2)c(=O)[nH]c1=O	A3.01	LAV	-	>2.5 µM

4 of the rows above, restated:

SMILES | cell line | strain | setting | result
CC(=O)OC[C@H]1O[C@@H](SCCOP(=O)(O)OC[C@H]2O[C@@H](n3cc(C)c(=O)[nH]c3=O)C[C@@H]2N=[N+]=[N-])[C@H](OC(C)=O)[C@@H](OC(C)=O)[C@@H]1OC(C)=O | MM + M/M | LAI | - | 0.2 µM
CC(C)[C@H](NC(=O)[C@H](Cc1ccc(O)cc1)C[C@H](O)[C@H](Cc1ccccc1)NC(=O)OC(C)(C)C)C(=O)N[C@@H](Cc1ccccc1)C(=O)N1CCOCC1 | MT-2 | MN | - | <0.3 µM
CC[C@H](C)[C@H](NC(=O)C(C)N(C(=O)[C@H](Cc1ccccc1)NC(=O)[C@H](C)NC(=O)OC(C)(C)C)C(Cl)CCl)C(=O)N[C@H](C(=O)OC)C(C)C | CEM | LAI | - | 100 µg/mL
CC(C)C1=C2C3CCC4[C@@]5(C)CC[C@H](OC(=O)CC(C)(C)C(=O)O)C(C)(C)C5CC[C@@]4(C)[C@]3(C)CC[C@@]2(NC(=O)N[C@@H](C)c2ccccc2)CC1=O | MT-2 | IIIB | 30% human serum | <0.199 µM

An empty or dashed field is not shown. ECn: concentration that inhibits the pathogen or its effect by n%. a–b is a range or a potency band.